Results of unrelated studies side by side (data: NIAID ChemDB).

All rows: whole-cell or culture tests; agent: Mycobacterium bovis BCG

ECn: concentration that inhibits the pathogen or its effect by n%.

smiles	method	changes	strain or isolate	read-out	conditions	value
CCc1nc2ccc(Cl)cn2c1C(=O)NCc1ccc(N2CCC(c3ccc(OC(F)(F)F)cc3)CC2)cc1	broth dilution	bd oxidase knockout	-	MIC50	-	0.0016 µM
CCCCCCCCCCCCCC#CCC#CC(=O)O	-	-	mc22421	MIC99	-	21.5 µM
Nc1ccc(C(=O)O)c(O)c1	fluorescence	DHFR-overexpressing	-	MIC	-	>20 µM
C#CCCCCCCCCCCCCC#CC(=O)O	-	-	mc22421	MIC99	-	1.2 µM
CCOC(=O)NC(=O)c1ccsc1NC(=O)c1nc2ccccc2s1	turbidity	-	-	MIC99	-	3 µg/mL
NNC(=O)c1ccncc1	fluorescence	Thymidylate synthase (thyA) overexpressing	-	MIC	-	0.7 µM
Clc1ccc2c(c1)CCC(Nc1ncnc3ccccc13)C2	luminescence	-	-	MIC50	-	>50 µM
O=C(C1CCN(c2nnc(-n3cccc3)s2)CC1)N1CCC(Cc2ccccc2)CC1	fluorescence	-	recG	MIC	-	1.6 µM
CCCCCCCCC#CCCCCCCC#CC(=O)O	-	-	mc22421	MIC99	-	2.7 µM
CCc1cn(C2OC(CO)C(Br)C2F)c(=O)[nH]c1=O	resazurin	-	-	MIC60	-	10 µg/mL
C[C@H]1COC2(CCN(c3nc(=O)c4cc(C(F)(F)F)cc([N+](=O)[O-])c4s3)CC2)O1	fluorescence	DprE1 mutant (E221Q)	recG	MIC	-	0.018 µM
C[C@@H](NC(=O)c1cc(N=O)cc(C(F)(F)F)c1)c1ccccc1	-	-	-	EC50	-	4.6 µg/mL
Cc1ccc2nc(Nc3ncnc4ccccc34)sc2c1	luminescence	-	-	MIC50	-	>20 µM
CCc1n[nH]c(=S)n1N	broth dilution / resazurin	-	-	MIC	48 h	62.5 µg/mL
c1ccc(CCNc2ncnc3ccsc23)cc1	luminescence	-	-	MIC50	-	>50 µM
CNO	visual reading	-	-	MIC100	-	<41.8 µg/mL
FC(F)(F)Oc1ccc(Oc2ccc(Nc3ncnc4ccccc34)cc2)cc1	luminescence	-	-	MIC50	-	>20 µM
CCCCCCSCCCCCCCCCCCCC#CC(=O)O	-	-	mc22421	MIC99	-	2.2 µM
Cc1nc(Nc2ccccc2Oc2ccc(C(F)(F)F)cc2)c2ccc(F)cc2n1	luminescence	-	-	MIC50	-	>50 µM
CCCCCCSCCCCCCCCCCC#CC(=O)O	-	-	mc22421	MIC99	-	2.4 µM
FC(F)(F)c1cnc(Oc2ccc(Nc3ncnc4ccccc34)cc2)c(Cl)c1	luminescence	-	-	MIC50	-	>50 µM
O=C(NCCNC(=O)c1ccc2c(c1)B(O)OC2)c1ccc2c(c1)B(O)OC2	visual reading / absorbance	-	-	MIC	-	780 µM
FC(F)(F)c1cccnc1Oc1ccc(Nc2ncnc3ccccc23)cc1	luminescence	-	-	MIC50	-	>20 µM
CCc1cn(C2OC(COC(C)=O)C(OC(C)=O)C2F)c(=O)[nH]c1=O	resazurin	-	-	MIC55	-	50 µg/mL
FS(F)(F)(F)(F)c1ccc(CNc2ncnc3ccccc23)cc1	luminescence	-	-	MIC50	-	>20 µM
O=c1[nH]c(=S)c(CO)cn1C1OC(CO)C(O)C1O	resazurin	-	-	MIC100	-	100 µg/mL
CS(=O)(=O)c1ccc(Oc2ccc(Nc3ncnc4cc(F)ccc34)cc2)cc1	luminescence	-	-	MIC50	-	>50 µM
CCCCCCCCCCCCSCC#CC(=O)O	-	-	mc22421	MIC99	-	4.6 µM
Fc1ccc2c(Nc3ccc(Oc4cccc(C(F)(F)F)c4)cc3)ncnc2c1	luminescence	-	-	MIC50	-	>20 µM
CCCCCCCCCCCCCCSCC#CC(=O)O	-	-	mc22421	MIC99	-	2.1 µM

For reference, 4 entries again:

| smiles | method | changes | strain or isolate | read-out | conditions | value |
|---|---|---|---|---|---|---|
| Clc1ccc2c(c1)CCC(Nc1ncnc3ccccc13)C2 | luminescence | - | - | MIC50 | - | >50 µM |
| CCCCCCCCCCCCCCSCC#CC(=O)O | - | - | mc22421 | MIC99 | - | 2.1 µM |
| CCCCCCCCC#CCCCCCCC#CC(=O)O | - | - | mc22421 | MIC99 | - | 2.7 µM |
| c1ccc(CCNc2ncnc3ccsc23)cc1 | luminescence | - | - | MIC50 | - | >50 µM |

Neighbouring rows are from separate reports. An empty or dashed field is not shown. MIC50, MIC90 and the like: level of inhibition, or share of isolates inhibited.